# Experimental data as given in PubChem BioAssay.
# This is a selection; strong and weak results do not stand in their true shares. The source made the active and inactive calls. No stated cut-off is given here; in the data, active means inhibition above about 33%; inactive means the rest.
# Test: VP16 transactivation reporter inhibitors, counter-screen for LRH-1 inverse agonist project, cell-based, luminescence, high throughput (AID 651615)
# Conditions: Gal4-VP16 luciferase reporter cells, at 3.6 µM, active compounds read high
smiles,measurement,value
O=[N+]([O-])c1cc([N+](=O)[O-])c(-c2cnn(-c3ccccc3)c2)c([N+](=O)[O-])c1,inhibition,inactive: -11%
